Experimental data: PMC2887854

The substances below were run against protective antigen (PA83, 83 kDa), monomeric (Bacillus anthracis).

Q: For “TEM8 extracellular vWA domain (residues 38-220) with the C177A mutation, called WT (from UniProt Q9H6X2-1 38-220)”, which Kd is on record?
A: 29.8 nM

Q: What about the koff of the same substance?
A: 0.00014 s⁻¹

Q: And the kon?
A: 5460 M⁻¹ s⁻¹

Q: What does the source list for “TEM8 vWA domain (38-220) K51A, C177A (from UniProt Q9H6X2-1 38-220)”?
A: Kd: 58100 nM; koff: 0.00527 s⁻¹; kon: 93.6 M⁻¹ s⁻¹

Q: Which Kd does the source give for “TEM8 vWA domain (38-220) L56A, C177A (from UniProt Q9H6X2-1 38-220)” here?
A: 4.44 nM

Q: What about the koff of the same substance?
A: 6.6e-05 s⁻¹

Q: What about the kon of the same substance?
A: 14900 M⁻¹ s⁻¹

Q: For “TEM8 vWA domain (38-220) M1 (L56A and H57N), C177A (from UniProt Q9H6X2-1 38-220)”, which Kd is on record?
A: 5.25 nM

Q: And the koff?
A: 4.46e-05 s⁻¹

Q: And the kon?
A: 8660 M⁻¹ s⁻¹

Q: Which Kd does the source give for “TEM8 vWA domain (38-220) R88Q, C177A (from UniProt Q9H6X2-1 38-220)” here?
A: 167 nM

Q: And the koff?
A: 0.000621 s⁻¹

Q: What about the kon of the same substance?
A: 3730 M⁻¹ s⁻¹

Q: Which Kd does the source give for “TEM8 vWA domain (38-220) T87S, C177A (from UniProt Q9H6X2-1 38-220)” here?
A: 49.7 nM

Q: What about the koff of the same substance?
A: 0.000259 s⁻¹

Q: What about the kon of the same substance?
A: 6110 M⁻¹ s⁻¹
